Results on 1 compound are retold here after ChEMBL document CHEMBL2177030.

Chains of the proteins cited; added tags and fusions are not shown. Lines headed by an entry give the natural chain unless they say otherwise; changes in a name come on top.
UniProt O07427: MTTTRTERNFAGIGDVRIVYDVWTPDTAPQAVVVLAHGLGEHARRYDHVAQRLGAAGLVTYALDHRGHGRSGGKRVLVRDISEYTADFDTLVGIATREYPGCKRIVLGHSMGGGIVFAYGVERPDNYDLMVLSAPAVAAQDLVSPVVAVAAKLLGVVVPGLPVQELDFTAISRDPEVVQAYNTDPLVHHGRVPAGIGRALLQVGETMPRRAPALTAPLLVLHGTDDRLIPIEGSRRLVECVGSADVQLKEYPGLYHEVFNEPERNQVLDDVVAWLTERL

Experiment [1] has as its system Mycobacterium tuberculosis. The experiment is described as follows: Inhibition of Mycobacterium tuberculosis LipY pre-incubated for 30 mins with enzyme before substrate addition by pH-stat technique. An outline of the steps: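 Without NaTDC, LipY was incubated 30 min at 25 °C with inhibitor at xI 2–100. Residual activity was determined by pH-stat at 37 °C on TC4 in 2.5 mM Tris-HCl pH 7.5, 300 mM NaCl, 3 mM NaTDC. xI50 was taken from activity versus molar excess. Isopropanol-only controls were run. At least duplicate.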

Experiment [2] addresses T1, Cutinase 1 (Fusarium vanettenii) (UniProt P00590).
T1 sequence (whole entry): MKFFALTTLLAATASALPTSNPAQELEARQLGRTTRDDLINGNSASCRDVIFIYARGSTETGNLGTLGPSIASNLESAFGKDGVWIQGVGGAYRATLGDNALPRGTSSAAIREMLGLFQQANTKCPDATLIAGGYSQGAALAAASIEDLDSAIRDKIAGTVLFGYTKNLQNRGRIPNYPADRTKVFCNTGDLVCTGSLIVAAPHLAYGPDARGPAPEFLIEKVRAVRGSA
In words: Inhibition of Fusarium solani pisi cutinase pre-incubated for 30 mins with enzyme before substrate addition by pH-stat technique. The essentials: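 Cutinase was preincubated for 30 min at 25 °C in 2 mM NaTDC, substrate absent, at inhibitor molar excess xI 2, 4, 20, 40 or 100. Residual activity was measured by pH-stat at 37 °C on TC4 emulsion at pH 8.0 with 0.25 mM NaTDC. xI50 is the molar excess giving 50% activity. Isopropanol controls were run. At least duplicate.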

The target of experiment [3] is Monoacylglycerol lipase (Mycobacterium tuberculosis H37Rv) (UniProt O07427). The experiment is described as follows: Inhibition of Mycobacterium tuberculosis Rv0183 pre-incubated for 30 mins with enzyme before substrate addition by pH-stat technique. An outline of the steps:
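Rv0183 was preincubated 30 min at 25 °C without NaTDC at inhibitor molar excess 2, 4, 20, 40 or 100. Residual monoglyceride lipase activity was measured by pH-stat at 37 °C with MC18 emulsion, pH 8.0, 3 mM NaTDC. xI50 was read from the residual-activity curve. Solvent controls were run. At least duplicate.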

The structures appear in SMILES notation. Calls of active or inactive are those of the source. The calls are words filed in the database; no cut-off is given here.

Consider `COC(=O)C1=C(C)OP(=O)(OC)CCC1c1ccccc1` (stereo not drawn), for which the XI50 entry in experiment [1] is “inactive”. The XI50 in experiment [2] was more than 100 molar excess; in experiment [3], 16.2 molar excess.
